Compound potency records, mixed from different reports. Data source: NIAID ChemDB in PubChem.

Shared fields: growth or infection tests; species: Human cytomegalovirus

ECn: concentration that inhibits the pathogen or its effect by n%. Conditions beyond the fields shown may differ between rows. a–b is a range or a potency band. Blank or dashed fields: not listed here.

structure,read-out,cell line,read by,strain or isolate,value
Cc1c(Br)cc(Br)c2ncc(CSCc3cccc(C(F)(F)F)c3)n12,EC50,HEL,plaque count,AD169,>50 µg/mL
CCCCCCCCCCCCCCCCCCOCCOP1(=O)CO[C@@H](Cn2ccc(N)nc2=O)CO1,EC50,MRC-5,plaque count,C8914-6 drug-resistant mutant,0.0045 µM
Nc1nc(NC2CC2)c2ncn(C=C3CC3CO)c2n1,EC50,HFF,plaque count,TOWNE,10.6 µM
Nc1nc2c(ncn2COC(CO)CO)c(=O)[nH]1,EC50,MRC-5,plaque count,PC92 (ganciclovir- foscarnet-susceptible),2.42 µM
Cc1c(Br)cc(Br)c2ncc(CSCCCc3ccccc3)n12,EC50,HEL,plaque count,AD169,1 µg/mL
Nc1nc2c(ncn2/C=C2/CC2(CO)CO)c(=O)[nH]1,EC50,HFF,plaque count,C8805 37-1-1 (ganciclovir- foscarnet-resistant),2.7 µM
Cc1cccc(CSCc2cnc3c(Br)cc(Br)c(C)n23)c1,EC50,HEL,plaque count,AD169,>20 µg/mL
O=C1c2ccccc2C(=O)N1CC1C2CC3CC(C2)CC1C3,EC50,HEL,plaque count,DAVIS,>20 µg/mL
Nc1nc(N)c2ncn(C=C3CC3CO)c2n1,EC50,HFF,plaque count,AD169,15.9 µM
Nc1nc2c(ncn2COC(CO)CO)c(=O)[nH]1,EC50,MRC-5,ELISA,Isolate 2288 UL54 S655L N685S,18.25 µM
Nc1nc2c(ncn2[C@@H]2C=C[C@H](CO)[C@@H](O)C2)c(=O)[nH]1,EC50,-,-,DAVIS,0.83 µg/mL
CN(C)c1cccc2c(S(=O)(=O)Nc3ccc(NC(=O)C(C)(C)CO)cc3)cccc12,EC50,-,plaque count,Isolate B.K,1.97 µM
O=C(NCCc1ccccc1)C1=Cc2ccncc2CC1,EC50,HFF,plaque count,1117R73-1-2,0.3 µM
O=C(O)P(=O)(O)O,EC50,HEL,plaque count,LY9725 (ganciclovir-resistant),80.6 µM
OC[C@H]1O[C@@H](n2c(Br)nc3cc(Cl)c(Cl)cc32)[C@H](O)[C@@H]1O,EC50,HFF,plaque count,EC,1 µM
Nc1nc2c(ncn2COC(CO)CO)c(=O)[nH]1,EC50,HEL,plaque count,DAVIS,0.9 µg/mL
Cn1cc(C(=O)NCc2ccc(Cl)cc2)c(=O)c2cc(CN3CCOCC3)ccc21,EC50,HFF,plaque count,C8914-6 ganciclovir-resistant,>11 µM
CC(C)Nc1nc2cc(Cl)c(Cl)cc2n1[C@H]1O[C@@H](CO)[C@H](O)[C@@H]1O,EC50,MRC-5,hybridisation,C8912,0.04 µM
O=C(NCc1ccc(Cl)cc1)c1c[nH]c2ccc(CCCO)cc2c1=O,EC50,-,plaque count,LYS,1.3 µM
OC[C@H]1O[C@@H](n2c(Cl)nc3cc(Cl)c(Cl)cc32)[C@H](O)[C@@H]1O,EC50,-,plaque count,D10 (D341E),18 µM
CCCCCCCCCCCCOCCCOP(=O)(O)CO[C@H](CO)Cn1ccc(N)nc1=O,EC50,HFF,plaque count,TOWNE,0.02 µM
OC[C@H]1O[C@@H](n2c(Br)nc3cc(Cl)c(Cl)cc32)[C@H](O)[C@@H]1O,EC50,MRC-5,plaque count,1038RC 4-3-2 (plaque-purified 1038RC strain),6 µM
O[C@@H]1[C@H](O)[C@H](O)CO[C@H]1n1c(Br)nc2cc(Cl)c(Cl)cc21,EC50,HFF,plaque count,EC,3.8 µM
Nc1nc2c(ncn2CC[C@@H](O)CO)c(=O)[nH]1,EC50,HEL,antigen,AD169,50 µM
O=C(NCc1ccc(Cl)cc1)c1c[nH]c2c(F)cc(CCCO)cc2c1=O,EC50,-,plaque count,759rD100,0.1 µM
Nc1ccn(C[C@@H](CO)OCP(=O)(O)O)c(=O)n1,EC50,HFF,plaque count,GDGrP53,1.9 µM
Cc1nc2ccccn2c1NC(=S)Nc1ccccc1,EC50,HEL,cytopathic effect,AD169,13 µg/mL
O[C@@H]1[C@H](O)CO[C@H]1n1c(Cl)nc2cc(Cl)c(Cl)cc21,EC50,HFF,virus yield,TOWNE,<0.46 µM
CCCCCCCC/C=C\CCCCCCCCOCCOP(=O)(O)CO[C@H](CO)Cn1ccc(N)nc1=O,EC50,HFF,plaque count,GDGrP53,0.05 µM
Nc1nc(=S)n([C@@H]2O[C@H](CO)[C@@H](O)[C@@H]2O)cc1/C=C/Br,EC50,MRC-5,plaque count,AD169,>213 µM
Cc1c(Br)cc(Br)c2ncc(CSCc3cccs3)n12,EC50,HEL,plaque count,AD169,>50 µg/mL
O=C1c2ccccc2C(=O)N1CCC12CC3CC(CC(C3)C1)C2,EC50,HEL,plaque count,AD169,>20 µg/mL
Nc1ncnc2c1ncn2C=C1CC1CO,EC90,KB,virus yield,TOWNE,1–2 µM
OC[C@H]1O[C@@H](n2c(Br)nc3cc(Cl)c(Cl)cc32)[C@H](O)[C@@H]1O,EC50,HFF,plaque count,D10 (BDCRB-resistant),20.3 µM
Nc1ccn(C[C@@H](CO)OCP(=O)(O)O)c(=O)n1,EC50,HEL,plaque count,LY9725 (ganciclovir-resistant),0.73 µM
Nc1ncnc2c1ncn2C=C1CC1CO,EC90,-,plaque count,VR5406 (ganciclovir-resistant),4.3 µM
OC[C@@H]1O[C@H](n2c(Br)nc3cc(Cl)c(Cl)cc32)[C@@H](O)[C@H]1O,EC50,MRC-5,hybridisation,AD169,0.9 µM
O=C(NCc1ccc(Cl)cc1)c1c[nH]c2ccc(CCCO)cc2c1=O,EC90,-,virus yield,DAVIS,3.9 µM
CC(C)Nc1nc2cc(Cl)c(Cl)cc2n1[C@H]1O[C@@H](CO)[C@H](O)[C@@H]1O,EC50,HFF,plaque count,RCdelta97,>100 µM
OC[C@H]1O[C@@H](n2c(Br)nc3cc(Cl)c(Cl)cc32)[C@H](O)[C@@H]1O,EC50,-,plaque count,1117 3-1-2 (CDV-resistant),0.53 µM
CCc1cn([C@H]2C[C@H](O)[C@@H](CO)O2)c(=S)[nH]c1=O,EC50,MRC-5,plaque count,T-137,>277.6 µM
Nc1ccn(C[C@@H](CO)OCP(=O)(O)O)c(=O)n1,EC50,MRC-5,plaque count,C8805-37 (ganciclovir-resistant),0.33 µg/mL
CCCCCCCC/C=C\CCCCCCCOCCCOP(=O)(O)CO[C@H](CO)Cn1ccc(N)nc1=O,EC50,HFF,plaque count,VR4760 (foscarnet-resistant),0.002 µM
O=c1[nH]c(=S)n([C@@H]2O[C@H](CO)[C@@H](O)[C@@H]2O)cc1CCO,EC50,MRC-5,plaque count,T-137,>213 µM
Nc1nc2c(ncn2C[C@@H]2CC[C@@H](P(=O)(O)O)O2)c(=O)[nH]1,EC50,HS68,plaque count,AD169,0.09 µg/mL
CCCCCCCCCCCCCCCCOCCCOP(=O)(O)CO[C@H](CO)Cn1ccc(N)nc1=O,EC50,MRC-5,plaque count,C8914-6 drug-resistant mutant,0.0025 µM
COc1ccccc1CNC(=O)C1=Cc2ccncc2CC1,EC50,HFF,virus yield,TOWNE,>28.2 µM
O=C(NCc1ccc(Cl)cc1)c1cn2c3c(cc(CN4CCOCC4)cc3c1=O)OC(c1cccnc1)C2,EC50,HFF,plaque count,PFA/R B300 (PFA-resistant),4.1 µM
Nc1ccn(C[C@H]2COP(=O)(O)CO2)c(=O)n1.O=C(O)P(=O)(O)O,EC50,MRC-5,plaque count,PAAR,0.93 µM
COc1cccc(N2CCN(C3=Nc4c(F)cccc4[C@H](CC(=O)O)N3c3cc(C(F)(F)F)ccc3OC)CC2)c1,EC50,-,plaque count,Clinical isolate 5,0.002 µM
OC[C@@H]1O[C@@H](n2c(Cl)nc3cc(Cl)c(Cl)cc32)[C@H](O)[C@@H]1O,EC90,HFF,virus yield,TOWNE,9.2 µM
CC(C)Oc1ccccc1CNC(=O)c1ccc2cnccc2n1,EC50,MRC-5,plaque count,P8,0.3 µM
O=C(O)/C=C/c1cn([C@@H]2O[C@H](CO)[C@@H](O)[C@@H]2O)c(=S)[nH]c1=O,EC50,MRC-5,plaque count,AD169,>213 µM
O=C(O)P(=O)(O)O,EC50,MRC-5,plaque count,Towne (ganciclovir- foscarnet-susceptible),136 µM
CC(C)Nc1nc2cc(Cl)c(Cl)cc2n1[C@H]1O[C@@H](CO)[C@H](O)[C@@H]1O,EC90,HFF,virus yield,C4 (BDCRB-resistant),2.9 µM
Cc1c(Br)cc(Br)c2ncc(CSC(C)c3cccs3)n12,EC50,HEL,plaque count,DAVIS,>50 µg/mL
CCc1cn([C@@H]2O[C@H](CO)[C@@H](O)[C@@H]2O)c(=S)nc1N,EC50,MRC-5,plaque count,T-137,>264.9 µM
Cn1cc(C(=O)NCc2ccc(Cl)cc2)c(=O)c2cc(CN3CCOCC3)ccc21,EC50,HFF,plaque count,PH,1 µM
Nc1nc2c(ncn2CCCCO)c(=O)[nH]1,EC50,HEL,antigen,9 isolates,150 µM
Nc1nc2c(ncn2C=C2CC2CO)c(=O)[nH]1,EC50,HFF,plaque count,C9208/5-4-2,9.4 µM
Nc1nc2c(ncn2[C@@H]2C[C@H](CO)[C@H]2CO)c(=O)[nH]1.O=C(O)P(=O)(O)O,EC75,MRC-5,plaque count,PAAR,0.93 µM
Nc1ncnc2ncn(/C=C3/C(F)C3(CO)CO)c12,EC50,HFF,cytopathic effect,TOWNE,>100 µM
Nc1nc2c(ncn2COC(CO)CO)c(=O)[nH]1,EC50,HFF,virus yield,TOWNE,<3.2 µM
O=C1c2ccccc2C(=O)N1CCCC12CC3CC(CC(C3)C1)C2,EC50,HEL,plaque count,AD169,≥4 µg/mL
Cc1nc2ccccn2c1NC(=O)Nc1ccccc1,EC50,HEL,cytopathic effect,DAVIS,33 µg/mL
Nc1ccn(C[C@H]2COP(=O)(O)CO2)c(=O)n1,EC50,MRC-5,plaque count,DAVIS,0.45 µM
Nc1nc2c(ncn2COC(CO)CO)c(=O)[nH]1,EC50,HFF,plaque count,CH,4.3 µM

The last 9 rows once more:

structure,read-out,cell line,read by,strain or isolate,value
Nc1nc2c(ncn2CCCCO)c(=O)[nH]1,EC50,HEL,antigen,9 isolates,150 µM
Nc1nc2c(ncn2C=C2CC2CO)c(=O)[nH]1,EC50,HFF,plaque count,C9208/5-4-2,9.4 µM
Nc1nc2c(ncn2[C@@H]2C[C@H](CO)[C@H]2CO)c(=O)[nH]1.O=C(O)P(=O)(O)O,EC75,MRC-5,plaque count,PAAR,0.93 µM
Nc1ncnc2ncn(/C=C3/C(F)C3(CO)CO)c12,EC50,HFF,cytopathic effect,TOWNE,>100 µM
Nc1nc2c(ncn2COC(CO)CO)c(=O)[nH]1,EC50,HFF,virus yield,TOWNE,<3.2 µM
O=C1c2ccccc2C(=O)N1CCCC12CC3CC(CC(C3)C1)C2,EC50,HEL,plaque count,AD169,≥4 µg/mL
Cc1nc2ccccn2c1NC(=O)Nc1ccccc1,EC50,HEL,cytopathic effect,DAVIS,33 µg/mL
Nc1ccn(C[C@H]2COP(=O)(O)CO2)c(=O)n1,EC50,MRC-5,plaque count,DAVIS,0.45 µM
Nc1nc2c(ncn2COC(CO)CO)c(=O)[nH]1,EC50,HFF,plaque count,CH,4.3 µM